This is a selection; strong and weak results do not stand in their true shares. Activity calls are given as the source filed them.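 How the source made its calls: active means relative growth at most 50% at the other temperature and 20+ points below 30 °C, or under 10% at both; inactive means the rest, inconclusive results apart.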
test: S. aureus growth inhibition at 42 and 30 °C, primary screen, LtaS inhibitor project, RN4220, two temperatures (AID 720641); settings: OD600, 20 h, 42 °C, hits give low values

Row | SMILES | relative growth
1 | COc1ccccc1OP(C)(=O)Nc1ccccc1 (stereo not drawn) | inactive: 97.9%
2 | CCN1C(=O)N(c2ccccc2)P(=S)(OC)c2cc3c(cc21)OCCO3 (stereo not drawn) | inactive: 85.9%
3 | CP(=O)(Nc1ccc(Cl)cc1)Oc1ccccc1 (stereo not drawn) | inactive: 97.1%
4 | O=C(O)CCC(=O)N=S(c1ccccc1)c1ccccc1.O=[N+]([O-])c1cc([N+](=O)[O-])c(O)c([N+](=O)[O-])c1 | inactive: 106%
5 | CCn1cccc/c1=N\P1(=S)OCCO1 | inactive: 89%
6 | Cc1cccc(NP(C)(=O)Oc2ccccc2)c1 (stereo not drawn) | inactive: 106%
7 | CCOC(=O)c1ccc(NP(C)(=O)Oc2ccc(OC)cc2)cc1 (stereo not drawn) | inactive: 107%
8 | CP(=O)(NC(=O)Nc1ccccc1)Oc1ccccc1 (stereo not drawn) | inactive: 108%
9 | COP1(=S)c2c(C)nn(-c3ccccc3)c2N=C(c2ccccc2)N1C1CC1 (stereo not drawn) | inactive: 89%
10 | O=P1(Nc2nccs2)CC=CC1 | inactive: 96.2%
11 | O=C(OC1CN2CCC1CC2)C12CC3CC(CC(C3)C1)C2 (stereo not drawn) | inactive: 87.9%
12 | COP1(=S)N=C2c3ccccc3CN2c2cc(N(C)C)ccc21 (stereo not drawn) | inactive: 95%
13 | Cc1cc(C)cc(OP(C)(=O)NCc2ccccc2)c1 (stereo not drawn) | inactive: 127%
14 | Nc1nonc1OCCOc1nonc1N | inactive: 125%
15 | CC1=Nc2ccc(C(F)(F)F)cc2C1(C)C | inactive: 78.2%
16 | O=C(O)C1(O)c2ccccc2-c2ccccc21 | inactive: 99.2%
17 | CCOP1(=S)c2c(C)nn(CCC#N)c2N=C(c2ccc(F)cc2)N1C (stereo not drawn) | inactive: 113%
18 | O=P1(Nc2nc3ccc(Cl)cc3s2)COc2ccccc2OC1 | inactive: 87.5%
19 | NC(=O)COC(=O)C1(O)c2ccccc2-c2ccccc21 | inactive: 79.9%
20 | Cc1cccc(OCC(=O)OC2CN3CCC2CC3)c1 (stereo not drawn) | inactive: 112%
21 | COc1cc(-n2cnnn2)ccc1-n1cnnn1 | inactive: 95.2%
22 | O=C(OC1CN2CCC1CC2)c1ccc(Cl)cc1 (stereo not drawn) | inactive: 108%
23 | Nc1nonc1-c1no[n+]([O-])c1-c1nonc1N | inactive: 108%
24 | O=P1(Nc2ccccn2)COc2ccccc2OC1 | inactive: 111%
25 | CC1(C)COP(=S)(N(C2=NCCC2)c2ccccc2)OC1 | inactive: 85.1%
26 | Cc1cc(C)cc(OP(C)(=O)Nc2ccc(OC(C)C)cc2)c1 (stereo not drawn) | inactive: 100%
27 | CCSP(=O)(c1ccccc1)c1ccccc1 | inactive: 99.1%

Row | SMILES | relative growth
28 | Cc1nn(CCC#N)c2c1P(=O)(Nc1ccccc1Cl)N(C)C(c1ccc(F)cc1)=N2 (stereo not drawn) | inactive: 96%
29 | CP(=O)(N1CCOCC1)N1CCOCC1 | inactive: 106%
30 | Cc1nn(-c2ccccc2)c2c1P(=O)(N1CCOCC1)N(C)C(c1ccccc1)=N2 (stereo not drawn) | inactive: 100%
31 | Cc1ccc(C(=O)OC2CN3CCC2CC3)cc1 (stereo not drawn) | inactive: 96.8%
32 | Nc1nonc1OCc1nonc1COc1nonc1N | inactive: 87.8%
33 | CC(=O)OC1(C#N)CN2CCC1CC2 (stereo not drawn) | active: -1.28%
34 | C=CCN1CCN(CCOC(=O)C(O)(c2ccccc2)c2ccccc2)CC1 | inactive: 82.6%
35 | Cc1ccccc1NP(C)(=O)Nc1ccccc1C | inactive: 88.1%
36 | CC(=O)OC1CN2CCC1C(c1ccccc1)C2 (stereo not drawn) | inactive: 111%
37 | O=P(Nc1nccs1)(c1ccccc1)c1ccccc1 | inactive: 86.2%
38 | O=C(OCCN1CCN(CCOCc2ccccc2)CC1)C(O)(c1ccccc1)c1ccccc1 | inactive: 147%
39 | Cc1cc(NC2=NC3C(C(=O)N(C)C(=O)N3C)N2C)n(-c2ccccc2)n1 (stereo not drawn) | inactive: 84.3%
40 | O=P1(Nc2nncs2)C=C(c2ccccc2)SC(c2ccccc2)=C1 | inactive: 101%
41 | O=P1(Nc2nc3ccc(Cl)cc3s2)COc2ccccc2O1 (stereo not drawn) | inactive: 120%
42 | CC1CCC(C(C)C)C(OP(=O)(Nc2nccs2)c2ccccc2)C1 (stereo not drawn) | inactive: 125%
43 | O=C(OC1CN2CCC1CC2)c1ccccc1 (stereo not drawn) | inactive: 91.7%
44 | COc1cc2c(cc1NP(C)(=O)Oc1ccccc1)oc1ccccc12 (stereo not drawn) | inactive: 48.2%
45 | COC(=O)c1cc2c(s1)N=C(c1ccccc1)N(C)P2(=O)N1CCOCC1 (stereo not drawn) | inactive: 99.9%
46 | O=C(OCC1CN(Cc2ccccc2)CCO1)C(O)(c1ccccc1)c1ccccc1 (stereo not drawn) | inactive: 119%
47 | O=C(COC(=O)C(O)(c1ccccc1)c1ccccc1)N1CCCCC1 | inactive: 102%
48 | CCOP(=Nc1nc2ccccc2n2nnnc12)(OCC)OCC | inactive: 102%
49 | CP(=O)(Nc1ccccn1)Oc1ccccc1 (stereo not drawn) | inactive: 96.2%
50 | CCOP(OCC)N1CCOCC1 | inactive: 106%
51 | CP(=O)(Nc1ccc(Cl)cc1)Oc1ccc(F)cc1 (stereo not drawn) | inactive: 96%
52 | CCc1ccc(OP(C)(=O)Nc2cccnc2)cc1 (stereo not drawn) | inactive: 89.8%
53 | CCc1nc2c(n1)c1c(non1O)c1c2no[n+]1[O-] | inactive: 88.7%

From PubChem BioAssay AID720641 (ICCB-Longwood Screening Facility, Harvard Medical School, 2013)
